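Growth of Mycobacterium tuberculosis over 4 days (cholesterol / DPPC medium with tyloxapol); the read-out is not stated. Concentration: 500 µM. Direction is inferred from retests: higher values go with more growth inhibition. About 18,000 compounds were tested under these conditions; 5% (about 900) showed 50% or more at least once.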

Results are given as percent effect. The record does not define 0% and 100%; most values in the screen are far below 50% and negative numbers occur (in some assays of this library far below -100). This is part of a subset picked to be rich in strong results.

* NS(=O)(=O)N1CCN(CC=Cc2ccc(F)cc2)CC1 : 55.94%
* CS(=O)(=O)N1CCN(CCn2cncn2)CC1 : 7.109%
* Cn1nc(C(=O)NCCc2ccccc2Br)ccc1=O : 1.747%
* COCC(=O)N1CCN(C)Cc2ccccc21 : -6.164%
* CC(C)CS(=O)(=O)CCNC(=O)c1ccc(=O)n(C)c1 : -0.7903%
* COCCn1c(SCC(=O)NC(N)=O)nc(C)c1C : 4.549%
* O=S1(=O)CC(CO)c2ccccc21 (stereo not shown) : 8.471%
* COCCC(=O)N1CCC(Nc2ncccc2Br)CC1 : 56.79%
* Cc1nnc(SCC(=O)N2CC[C@](C)(O)[C@@H](O)C2)o1 : -10.22%
* O=C1CN(C(=O)CCOc2ccc(Cl)cc2)CCN1 : 6.455%
* CC(CNCC(F)(F)CO)c1ccccc1 (stereo not shown) : 54.59%
* CCO[C@H]1CN(CCCc2ccco2)C[C@@H]1O : 1.799%
* CN(C)c1ccc(CN2CCOCC(O)C2)cn1 (stereo not shown) : -3.345%
* CC(C)CSCCSc1nnc(N)[nH]1 : 44.98%
* CCC(=O)c1cc(N)on1 : -12.81%
* CN(CC(N)=O)Cc1ccccc1N1CCCC1 : 43.67%
* NCc1ccccc1CN1CCCC1CO (stereo not shown) : -2.963%
* COCCOC1CCN(c2cccc(C)n2)CC1 : 59.02%
* CN1CCN(C(=O)c2cc(-c3cccs3)on2)CC1 : 38.76%
* CSc1ncc(CNCC2(O)CNCCOC2)n1C (stereo not shown) : 7.135%
* Cc1noc(CSc2ccc(C(=O)N3CCC3)cc2)n1 : 55.96%
* O=C(CCc1nnc(-c2ccsc2)o1)NC1=NCCS1 : 1.082%
* C=C(C)CN1CCC(NC(=O)NCCS(C)(=O)=O)CC1 : 2.758%
* COC[C@@H]1CCCN1Cc1cc(OC)ccn1 : -6.421%
* O=C(NCC(O)c1ccc(Cl)cc1)Nc1ccccn1 (stereo not shown) : 78.69%
* CCC(C)Oc1cc(CN)ccn1 (stereo not shown) : -11.63%
* Cc1n[nH]cc1CNCCS(=O)(=O)Cc1ccccc1 : 8.805%
* CCC(C)c1cc(C(=O)NC(C)(CO)CO)on1 (stereo not shown) : -13.08%
* CCc1cc(CNC(=O)c2ccc(F)c(F)c2)[nH]n1 : 71.76%
* CS(=O)(=O)C1CCCCNC1 (stereo not shown) : 19.13%
* Cn1ccnc1CSCCO : -5.015%
* COCCN(C)CCNC(=O)c1cccc(Cl)c1 : 10.91%
* CCC1CCCCN1CCC(=O)NC(N)=O (stereo not shown) : -8.569%
* Clc1cccc2nc(N3CCNCC3)oc12 : 12.67%
* CCNc1ncc(C(=O)N2CCCO2)s1 : 2.53%
* CCOC(=O)Nc1ccc2c(c1)OCCO2 : 71.86%
* NCc1cnn(-c2ccc(F)cc2)c1 : 21.8%
* CNCCCNC(=O)c1ccc(C(C)=O)cc1 : 7.002%

The last 4 entries again:

- CCNc1ncc(C(=O)N2CCCO2)s1 | 2.53%
- CCOC(=O)Nc1ccc2c(c1)OCCO2 | 71.86%
- NCc1cnn(-c2ccc(F)cc2)c1 | 21.8%
- CNCCCNC(=O)c1ccc(C(C)=O)cc1 | 7.002%

Measurements from “University of Dundee, Small-Polar-MMV Screening Library” (2021), ChEMBL document CHEMBL3988442.